Measured values taken from patent US11021444B2, “Antiviral compounds” (priority 2013, dated 2021).

Amino acid sequences for entries named in this document (tags omitted).
UniProt P28887, whole entry: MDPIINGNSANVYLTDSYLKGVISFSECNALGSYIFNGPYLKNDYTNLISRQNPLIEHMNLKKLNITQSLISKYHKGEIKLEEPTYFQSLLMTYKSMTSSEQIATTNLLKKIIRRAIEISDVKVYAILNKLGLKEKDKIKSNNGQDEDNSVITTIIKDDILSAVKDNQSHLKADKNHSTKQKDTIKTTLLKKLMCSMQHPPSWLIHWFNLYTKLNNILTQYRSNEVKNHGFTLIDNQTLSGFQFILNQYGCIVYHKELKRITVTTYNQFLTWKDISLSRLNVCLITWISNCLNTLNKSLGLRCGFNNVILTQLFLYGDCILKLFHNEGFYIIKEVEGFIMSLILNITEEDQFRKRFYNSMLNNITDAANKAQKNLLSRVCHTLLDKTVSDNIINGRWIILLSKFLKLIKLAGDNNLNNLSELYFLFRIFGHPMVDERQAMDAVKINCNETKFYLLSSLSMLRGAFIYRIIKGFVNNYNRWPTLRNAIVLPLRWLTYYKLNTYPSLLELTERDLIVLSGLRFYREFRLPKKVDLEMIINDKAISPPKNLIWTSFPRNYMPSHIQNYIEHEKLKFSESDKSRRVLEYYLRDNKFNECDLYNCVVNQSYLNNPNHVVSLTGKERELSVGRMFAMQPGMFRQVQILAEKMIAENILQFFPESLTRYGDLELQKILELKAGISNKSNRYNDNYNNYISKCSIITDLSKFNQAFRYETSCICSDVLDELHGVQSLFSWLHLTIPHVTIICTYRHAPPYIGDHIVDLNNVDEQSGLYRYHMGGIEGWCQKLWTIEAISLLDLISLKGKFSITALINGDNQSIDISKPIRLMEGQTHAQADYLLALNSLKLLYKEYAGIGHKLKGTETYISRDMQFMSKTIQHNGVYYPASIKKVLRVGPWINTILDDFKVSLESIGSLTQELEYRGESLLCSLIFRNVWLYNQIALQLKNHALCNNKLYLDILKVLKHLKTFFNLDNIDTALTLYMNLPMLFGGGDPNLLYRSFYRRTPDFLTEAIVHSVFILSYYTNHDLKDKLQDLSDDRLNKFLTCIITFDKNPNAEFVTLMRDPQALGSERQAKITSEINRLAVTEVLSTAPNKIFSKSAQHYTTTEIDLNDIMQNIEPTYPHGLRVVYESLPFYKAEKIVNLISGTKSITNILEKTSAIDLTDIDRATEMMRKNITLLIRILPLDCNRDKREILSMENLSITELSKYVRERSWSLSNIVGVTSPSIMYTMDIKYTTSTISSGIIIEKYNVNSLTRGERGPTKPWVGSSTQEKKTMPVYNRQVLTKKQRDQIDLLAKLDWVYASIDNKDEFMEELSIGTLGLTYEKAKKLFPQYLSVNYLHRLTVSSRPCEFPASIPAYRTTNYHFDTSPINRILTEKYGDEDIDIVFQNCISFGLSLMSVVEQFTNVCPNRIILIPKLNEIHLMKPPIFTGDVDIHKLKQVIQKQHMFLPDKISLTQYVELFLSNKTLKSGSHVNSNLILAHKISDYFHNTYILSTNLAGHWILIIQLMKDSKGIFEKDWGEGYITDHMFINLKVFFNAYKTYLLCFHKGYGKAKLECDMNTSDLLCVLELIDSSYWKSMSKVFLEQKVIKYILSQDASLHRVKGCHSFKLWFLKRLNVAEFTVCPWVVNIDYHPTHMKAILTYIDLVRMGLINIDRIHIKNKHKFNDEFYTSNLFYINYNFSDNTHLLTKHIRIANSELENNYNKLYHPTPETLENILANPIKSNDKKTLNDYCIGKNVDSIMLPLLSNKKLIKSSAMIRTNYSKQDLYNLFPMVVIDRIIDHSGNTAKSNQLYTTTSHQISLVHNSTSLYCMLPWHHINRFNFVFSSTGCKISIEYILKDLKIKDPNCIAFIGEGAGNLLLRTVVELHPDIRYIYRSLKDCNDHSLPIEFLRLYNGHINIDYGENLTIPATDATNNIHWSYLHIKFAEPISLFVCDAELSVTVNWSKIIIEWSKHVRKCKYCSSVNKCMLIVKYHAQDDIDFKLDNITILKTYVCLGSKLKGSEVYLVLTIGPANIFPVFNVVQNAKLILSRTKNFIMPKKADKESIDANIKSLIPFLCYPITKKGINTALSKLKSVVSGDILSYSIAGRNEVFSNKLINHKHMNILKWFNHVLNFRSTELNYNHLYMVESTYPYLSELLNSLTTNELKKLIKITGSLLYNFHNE
UniProt P03421, whole entry partner: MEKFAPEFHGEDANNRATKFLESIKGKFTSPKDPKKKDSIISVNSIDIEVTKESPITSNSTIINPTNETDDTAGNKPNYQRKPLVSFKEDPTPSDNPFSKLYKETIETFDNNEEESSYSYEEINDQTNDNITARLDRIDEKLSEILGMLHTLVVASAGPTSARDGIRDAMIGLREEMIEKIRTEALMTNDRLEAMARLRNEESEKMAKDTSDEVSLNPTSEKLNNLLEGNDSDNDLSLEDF

Tests used:
recombinant RSV complex = recombinant RSV complex (Human respiratory syncytial virus A, UniProt P28887); assay: RSV Polymerase Inhibition Assay; details: read-out: IC50 (compound concentration at which the enzyme-catalyzed rate was reduced by 50%), 10 nM recombinant RSV complex, 2 h at 30° C., Tables E, F and G list compounds by IC50 band
[1] = test system: Respiratory Syncytial Virus (RSV) long strain; details: read-out: 50% effective concentration (EC50); HEp-2 cells infected with RSV long strain, 5 days, CCK-8 readout; Tables A and B list compounds by EC50 band
[2] = read-out: EC50, the concentration of the drug required for reducing RSV replicon RNA by 50%, 395 HeLa or APC126 cells, value given by membership in Table H / Table I

Question: How did the IC50 (recombinant RSV complex) turn out when `COc1cc(C(=O)NCC(O)(c2c[nH]nn2)c2ccc(OC)c(-c3ccc(F)c(Cl)c3)n2)ccc1OCCO` (stereo not drawn) was run?
Answer: < 1000 nM

Question: Which IC50 (recombinant RSV complex) does the source give for `COc1cc(C(=O)NCC(O)(c2cc3c(c(-c4ccc(F)cc4)n2)OCC3(C)N)C(F)(F)F)ccc1OC1CC1` (single isomer, unassigned) [511] here?
Answer: < 1000 nM

Question: And the EC50 (RSV replicon; [2])?
Answer: < 1000 nM

Question: With `COc1cc(C(=O)NCC(C)(O)c2ccc(OC)c(-c3c[nH]c4c(F)cccc34)n2)ccc1OCCO` (single isomer, unassigned) [117b] as the molecule, how does the IC50 (recombinant RSV complex) read?
Answer: < 1000 nM

Question: And the EC50 (RSV replicon; [2])?
Answer: < 1000 nM

Question: And the EC50 [1]?
Answer: < 1000 nM

Question: `COc1cc(C(=O)NCC(O)(c2cc(C(C)(C)N)cc(-c3ccc(F)c(Cl)c3)n2)C(F)(F)F)ccc1OC1CC1` (stereo not drawn) was tested. Which IC50 (recombinant RSV complex; tested form: HCl) did it give?
Answer: < 1000 nM

Question: And the EC50 (RSV replicon; read-out: EC50, the concentration of the drug required for reducing RSV replicon RNA by 50%, 395 HeLa or APC126 cells, value given by membership in Table H / Table I, tested form: HCl)?
Answer: < 1000 nM

Question: With `COc1cc(C(=O)NCC(=O)c2cc3c(c(-c4c[nH]c5c(F)cccc45)n2)OCC3(C)C)ccc1OCCO` as the molecule, how does the IC50 (recombinant RSV complex) read?
Answer: < 1000 nM

Question: What about the EC50 (RSV replicon; [2]) of the same molecule?
Answer: < 1000 nM

Question: For `COc1cc(C(=O)NCC(C)(O)c2ccc(OC)c(-c3ccc(F)c(Cl)c3)n2)ccc1OC[C@@H](C)O` (single isomer, unassigned) [415], which IC50 (recombinant RSV complex) is on record?
Answer: < 1000 nM

Question: What about the EC50 (RSV replicon; [2]) of the same molecule?
Answer: < 1000 nM

Question: What about the EC50 [1] of the same molecule?
Answer: < 1000 nM

Question: For `COc1cc(C(=O)NCC(O)(c2cc3c(c(-c4ccc(F)c(Cl)c4)n2)OCC3(C)C)C(F)(F)F)ccc1CC1CCNC1=O` (stereo not drawn), which IC50 (recombinant RSV complex) is on record?
Answer: < 1000 nM

Question: And the EC50 [1]?
Answer: < 1000 nM

Question: Which IC50 (recombinant RSV complex) does the source give for `COc1cc(C(=O)NCC(O)(c2cc(C(C)(C)NCC(N)=O)cc(-c3ccc(F)c(Cl)c3)n2)C(F)(F)F)ccc1OC1CC1` (stereo not drawn) here?
Answer: < 1000 nM

Question: And the EC50 (RSV replicon; [2])?
Answer: < 1000 nM

Question: And the EC50 [1]?
Answer: < 1000 nM

Question: How did the IC50 (recombinant RSV complex) turn out when `C#CC(O)(CNC(=O)c1ccc(OCCF)c(OC)c1)c1ccc(OC)c(-c2ccc(F)c(Cl)c2)n1` (single isomer, unassigned) [413] was run?
Answer: < 1000 nM

Question: What about the EC50 (RSV replicon; [2]) of the same molecule?
Answer: < 1000 nM

Question: What about the EC50 [1] of the same molecule?
Answer: < 1000 nM

Question: Which results are given for `COc1cc(C(=O)NCC(C)(O)c2ccc(OC)c(-c3c[nH]c4c(F)cccc34)n2)ccc1OCC(N)=O` (single isomer, unassigned) [421]?
Answer: IC50 (recombinant RSV complex): < 1000 nM; EC50 (RSV replicon; [2]): < 1000 nM; EC50 [1]: < 1000 nM

Question: `COc1cc(C(=O)NCC(O)(c2cc3c(c(-c4ccc(F)cc4)n2)OCC3(C)N)C(F)(F)F)ccc1OC1CC1` (single isomer, unassigned) [510] was tested. Which IC50 (recombinant RSV complex) did it give?
Answer: < 1000 nM

Question: And the EC50 (RSV replicon; [2])?
Answer: < 1000 nM

Question: And the EC50 [1]?
Answer: < 1000 nM

Question: Which results are given for `COc1cc(C(=O)NCC(O)(Cn2cccn2)c2ccc(OC)c(-c3ccc(F)c(Cl)c3)n2)ccc1OCCO` (single isomer, unassigned) [185]?
Answer: IC50 (recombinant RSV complex): < 1000 nM; EC50 [1]: < 1000 nM

Question: For `COc1cc(C(=O)NCC(C)(O)c2ccc(OC)c(-c3ccc(F)c(Cl)c3)n2)ccc1OCCO` (single isomer, unassigned) [120b], which IC50 (recombinant RSV complex) is on record?
Answer: < 1000 nM

Question: And the EC50 (RSV replicon; [2])?
Answer: < 1000 nM

Question: And the EC50 [1]?
Answer: < 1000 nM

Question: How did the IC50 (recombinant RSV complex) turn out when `COc1cc(C(=O)NCC(C)(O)c2ccc(OC)c(-c3c[nH]c4c(F)cccc34)n2)ccc1OCCF` (stereo not drawn) was run?
Answer: < 1000 nM

Question: And the EC50 (RSV replicon; [2])?
Answer: < 1000 nM

Question: And the EC50 [1]?
Answer: < 1000 nM

Question: With `COc1cc(C(=O)NCC(O)(c2cc3c(c(-c4ccc(F)c(Cl)c4)n2)OCC3(C)C)C(F)(F)F)ccc1OC1CC1` (single isomer, unassigned) as the molecule, how does the IC50 (recombinant RSV complex) read?
Answer: < 1000 nM

Question: For `CCOc1ccc(C(=O)NCC(C)(O)c2ccc(OC)c(-c3c[nH]c4c(F)cccc34)n2)cc1OC` (single isomer, unassigned) [116b], which IC50 (recombinant RSV complex) is on record?
Answer: < 1000 nM

Question: And the EC50 (RSV replicon; [2])?
Answer: < 1000 nM

Question: What about the EC50 [1] of the same molecule?
Answer: < 1000 nM

Question: Which results are given for `COc1cc(C(=O)NCC(C)(O)c2ccc(OC)c(-c3ccc(F)c(Cl)c3)n2)ccc1OC[C@H](C)O` (single isomer, unassigned)?
Answer: IC50 (recombinant RSV complex): < 1000 nM; EC50 (RSV replicon; [2]): < 1000 nM; EC50 [1]: < 1000 nM

Question: For `COc1cc(C(=O)NCC(C)(O)c2ccc(OC)c(-c3ccc(F)c(Br)c3)n2)ccc1OCCF` (single isomer, unassigned) [118b], which IC50 (recombinant RSV complex) is on record?
Answer: < 1000 nM

Question: And the EC50 (RSV replicon; [2])?
Answer: < 1000 nM

Question: And the EC50 [1]?
Answer: < 1000 nM

Like-named read-outs stand apart in the source and are kept apart here.
